The assay addresses SARS-CoV-2 RBD (SARS-CoV-2) (UniProt P0DTC2). Nature of the assay: SPR. On the technique in general: SPR reads the build-up and loss of mass on a sensor chip optically.

Consider BD-368-2, for which the Kd came to 0.169 nM.

In general, Kd refers to a measure of binding affinity in units of concentration. A higher Kd goes with lower affinity.

The values above are taken from article PMC8413711.
